Anti-infective test results gathered from many reports (values: NIAID ChemDB through PubChem).

Shared fields: tests on isolated targets

Conditions beyond the fields shown may differ between rows. Percent inhibition refers to the dose given; in toxicity tests it is the harm to the cells. Blank or dashed fields: not listed here. Fold resistance has wild type as its base. ICn: concentration for n% inhibition.

compound | read by | agent | mutations | tested at | strain | protein | measure | result
Fc1ccc(N2CCN(c3cncc(-c4ccoc4)n3)CC2)cc1 | - | Cytomegalovirus | - | - | - | UL97 kinase | IC50 | <100 µM
O=C(Nc1nnc(NCc2ccc(F)cc2)s1)c1cccc([N+](=O)[O-])c1 | - | Human cytomegalovirus | - | - | - | Polymerase | IC50 | >25 µM
Cc1cccc(CC2CCc3nc(N)nc(N)c3C2)c1 | - | Cryptosporidium parvum | - | - | TYPE 1 | Dihydrofolate reductase | IC50 | 0.81 µM
O=C(Nc1nnc(NCC(c2ccccc2)c2ccccc2)s1)c1cc(F)cc(F)c1 | - | Human cytomegalovirus | - | - | - | Polymerase | IC50 | >25 µM
COc1ccc(CO)c(CNc2ccc3nc(N)nc(N)c3c2Cl)c1 | - | Cryptosporidium parvum | - | - | TYPE 1 | Dihydrofolate reductase | IC50 | 0.023 µM
CC(=O)c1ccc(N2CCN(c3cncc(-c4cccc(C)c4C)n3)CC2)cc1 | - | Cytomegalovirus | - | 10 µM | - | UL97 kinase | inhibition | >15%
COc1cc(CNc2ccc3nc(N)nc(N)c3c2Cl)cc(OC)c1OC | - | Cryptosporidium parvum | - | - | TYPE 1 | Dihydrofolate reductase | IC50 | 0.027 µM
O=C(Nc1nnc(NCCc2c[nH]c3ccccc23)s1)c1ccc([N+](=O)[O-])o1 | - | Human cytomegalovirus | - | - | - | Polymerase | IC50 | <25 µM
Nc1nc2c(ncn2[C@H]2CC[C@@H](COP(=O)(O)OP(=O)(O)OP(=O)(O)O)O2)c(=O)[nH]1 | nucleotide incorporation | HIV | RT-W266S | - | - | Reverse transcriptase | IC50 | >2.5 µM
Nc1nc(N)c2c(n1)CCC(Cc1ccc(OC(F)(F)F)cc1)C2 | - | Cryptosporidium parvum | - | - | TYPE 1 | Dihydrofolate reductase | IC50 | 0.53 µM
O=C(OC1OC2COC(=O)c3cc(Oc4c(C(=O)OC5C(O)OC6COC(=O)c7cc(O)c(O)c(O)c7-c7c(cc(O)c(O)c7O)C(=O)OC6C5OC(=O)c5cc(O)c(O)c(O)c5)cc(O)c(O)c4O)c(O)c(O)c3-c3c(cc(O)c(O)c3O)C(=O)OC2C(OC(=O)c2cc(O)c(O)c(O)c2)C1O)c1cc(O)c(O)c(O)c1 | - | Epstein-Barr virus | - | 80 µg/mL | - | DNA polymerase | inhibition | 42.5%
CC(C)c1cc(C(C)C)c(C(=O)Nc2nnc(NCCc3ccc(S(N)(=O)=O)cc3)s2)c(C(C)C)c1 | - | Human cytomegalovirus | - | - | - | Polymerase | IC50 | <25 µM
CCCC(C)NC(=O)c1ccc(N(C)Cc2ccc3nc(N)nc(N)c3n2)cc1 | - | Cryptosporidium parvum | - | - | TYPE 2 | Dihydrofolate reductase | IC50 | 1.3 µM
Clc1cc(CN2CCCNCCNCCCNCC2)cc(Cl)n1 | - | - | - | - | WT | CXCR4 | IC50 | 0.42 µM
O=C1NC(=S)SC1=Cc1ccc(-c2cc([N+](=O)[O-])ccc2Cl)o1 | - | Bovine viral diarrhea virus | - | - | - | NS5 polymerase | IC50 | ≤1 µM
Cc1ccc(C(=O)Nc2nnc(NCCCCc3ccccc3)s2)cc1 | - | Human cytomegalovirus | - | - | - | Polymerase | IC50 | >25 µM
O=C(O[C@@H]1O[C@@H]2COC(=O)c3cc4c(O)c(O)c3-c3c(cc(O)c(O)c3O)C(=O)O[C@H]2[C@H](OC(=O)c2cc(O)c(O)c(O)c2)[C@H]1OC(=O)c1cc(O)c(O)c(O)c1Oc1cc2c(c(O)c1O)-c1c(cc(O)c(O)c1O)C(=O)OC[C@H]1OC(O)[C@H](OC(=O)c3cc(O)c(O)c(O)c3O4)[C@@H](OC(=O)c3cc(O)c(O)c(O)c3)[C@@H]1OC2=O)c1cc(O)c(O)c(O)c1 | - | Epstein-Barr virus | - | 2.5 µg/mL | - | DNA polymerase | inhibition | 30.4%
COc1ccc(N2CCN(c3cncc(-c4ccc(C(N)=O)cc4)n3)CC2)cc1OC | - | Cytomegalovirus | - | - | - | UL97 kinase | IC50 | <1 µM
Nc1nc(N)c2c(n1)CCc1ccc(Cl)cc1-2 | - | Cryptosporidium parvum | - | - | TYPE 1 | Dihydrofolate reductase | IC50 | >10 µM
CCCc1ccc(-c2ccc(C=C3SC(=S)N(CCC(=O)O)C3=O)o2)s1 | - | Bovine viral diarrhea virus | - | - | - | NS5 polymerase | IC50 | ≤1 µM
Nc1nc2c(ncn2[C@H]2CO[C@@H](COP(=O)(O)OP(=O)(O)OP(=O)(O)O)O2)c(=O)[nH]1 | radiometric | HIV | RT-L74V K103N | - | - | Reverse transcriptase | fold resistance | 1.1
O=C(O)c1ccc(N2C(=O)C(=Cc3ccc(-c4cc([N+](=O)[O-])ccc4Cl)o3)SC2=S)cc1 | - | Bovine viral diarrhea virus | - | - | - | NS5 polymerase | IC50 | ≤1 µM
CCCCCCCCCCCCC/C=C/[C@@H](O)[C@H](CO[C@@H]1O[C@H](CO)[C@H](O)[C@H](OS(=O)(=O)O)[C@H]1O)NC(=O)CCCCCCCCCCCCCCCCCCCCCCC | - | Influenza A virus | - | 200 µM | H3N2 A/HONG KONG/1/68 | Sialidase | inhibition | 42.2%
Nc1nc(N)c2nc(CN3c4ccccc4Sc4ccccc43)cnc2n1 | - | Cryptosporidium parvum | - | - | TYPE 1 | Dihydrofolate reductase | IC50 | 1.8 µM
Cc1cc(C)cc(-c2cncc(N3CCN(c4ccc(F)cc4F)CC3)n2)c1 | - | Cytomegalovirus | - | - | - | UL97 kinase | IC50 | <100 µM
COc1ccc(OC)c(CC2CCc3nc(N)nc(N)c3C2)c1 | - | Cryptosporidium parvum | - | - | TYPE 2 | Dihydrofolate reductase | IC50 | 0.33 µM
O=C(O)c1ccc(N2C(=O)C(=Cc3ccc(-c4cc5ccccc5o4)o3)SC2=S)cc1 | - | Bovine viral diarrhea virus | - | - | - | NS5 polymerase | IC50 | ≤1 µM
c1cncc(-c2cncc(N3CCN(c4ccncc4)CC3)n2)c1 | - | Cytomegalovirus | - | 10 µM | - | UL97 kinase | inhibition | >15%
COc1ccc(OC)c(N(C)Cc2cccc3nc(N)nc(N)c23)c1 | - | Cryptosporidium parvum | - | - | TYPE 2 | Dihydrofolate reductase | IC50 | >10 µM

The last 3 rows once more:

compound,read by,agent,mutations,tested at,strain,protein,measure,result
O=C(O)c1ccc(N2C(=O)C(=Cc3ccc(-c4cc5ccccc5o4)o3)SC2=S)cc1,-,Bovine viral diarrhea virus,-,-,-,NS5 polymerase,IC50,≤1 µM
c1cncc(-c2cncc(N3CCN(c4ccncc4)CC3)n2)c1,-,Cytomegalovirus,-,10 µM,-,UL97 kinase,inhibition,>15%
COc1ccc(OC)c(N(C)Cc2cccc3nc(N)nc(N)c23)c1,-,Cryptosporidium parvum,-,-,TYPE 2,Dihydrofolate reductase,IC50,>10 µM